Compound potency records, mixed from different reports. Data source: NIAID ChemDB in PubChem.

Shared fields: whole-cell or culture tests; agent: Hepatitis C virus; read by: replicon; endpoint: EC50

Blank or dashed fields: not listed here. ECn: concentration that inhibits the pathogen or its effect by n%. Neighbouring rows are from separate reports. a–b is a range or a potency band.

O=c1c(-c2noc(Cc3ccccc3)n2)cn(Cc2ccc(C(F)(F)F)cc2F)c2cc(N3CCCNCC3)c(F)cc12 ; strain: 1b ; value: <2 µM
C[C@@H](NC(=O)OCc1ccccc1)C(=O)Nc1ccc(C2SC(=Nc3cccc(F)c3)N(Cc3ccc(OC(F)(F)F)cc3)C2=O)cc1 ; cell line: Huh7 ; value: 1–5 µM
Cc1ccc(-n2ncc3c(Nc4ccc(OC(F)(F)F)cc4)ncnc32)c(C)c1 ; cell line: HUH 9B ; value: 1–10 µM
C[C@@H](NC(=O)OCc1ccccc1)C(=O)Nc1ccc(C2SC(=Nc3cccc(Oc4ccccc4)c3)N(Cc3ccco3)C2=O)cc1 ; cell line: Huh7 ; value: 0.1–1 µM
CNC(=O)c1c(-c2ccc(F)cc2)oc2cc(S(=O)(=O)N3CCC(O)CC3)c(OC(C)C)cc12 ; cell line: Huh7 ; value: <1 µM
O=c1c(-c2noc(Cc3ccc(Cl)cc3)n2)cn(Cc2ccc(C(F)(F)F)cc2F)c2c1CNCC2 ; strain: 1b ; value: <10 µM
CNC(=O)c1c(-c2ccc(F)cc2)oc2ccc(OCc3cccc(C(=O)OC)c3)cc12 ; cell line: Huh7 ; value: >30 µM
COc1cccc(CC(=O)N/N=C/c2ccccc2OCc2ccc(C)cc2)c1 ; cell line: Huh7 ; value: >50 µM
CNC(=O)c1c(-c2ccc(F)cc2)oc2cc(NS(=O)(=O)C(C)C)c(OC(C)C)cc12 ; cell line: Huh7 ; value: <10 µM
CCCCc1ccc(Nc2ncnc3c2cnn3-c2ccccc2C)cc1 ; cell line: HUH 9B ; value: 1–10 µM
O=C(Nc1ccc(C2SC(=Nc3cccc(F)c3)N(CC3CCCO3)C2=O)cc1)[C@H]1CCCN1C(=O)OCc1ccccc1 ; cell line: Huh7 ; value: <0.1 µM
C[C@H](c1ccccc1)n1cc(-c2noc(C(C)(C)c3ccccc3)n2)c(=O)c2cc(F)c(N3CCOCC3)cc21 ; strain: 1b ; value: <0.5 µM
O=C(Nc1ccc(OCc2ccccn2)cc1)Nc1ncnc2c1cnn2-c1ccccc1Cl ; cell line: HUH 9B ; value: <1 µM
CNC(=O)c1c(-c2ccc(F)cc2)oc2cc(N3CCOCC3)c(OCCCl)cc12 ; cell line: Huh7 ; value: >30 µM
O=C(Cc1ccccc1)N/N=C/c1ccccc1OS(=O)(=O)c1ccc2ccccc2c1 ; cell line: Huh7 ; value: <5 µM
O=C(Nc1ccc(C2SC(=Nc3ccc(N4CCOCC4)cc3)N(Cc3ccccn3)C2=O)cc1)[C@H]1CCCN1C(=O)Cc1ccccc1Cl ; cell line: Huh7 ; value: <0.1 µM
C=CC1CC1(NC(=O)[C@@H]1C[C@@H](OC(=O)Nc2cc(C(F)(F)F)ccc2-n2cccc2)CN1C(=O)[C@@H](NC(=O)OC(C)(C)C)C(C)(C)C)C(=O)NS(=O)(=O)C1CC1 ; cell line: Huh7 ; strain: 1b ; value: 0.1–1 µM
Cc1ccc(-n2ncc3c(Nc4cccc(C(F)(F)F)c4)ncnc32)c(C)c1 ; cell line: HUH 9B ; value: 1–10 µM
CN(c1ccccc1/C=N/NC(=O)Cc1cccc(Br)c1)S(=O)(=O)c1ccc(C(F)(F)F)cc1 ; cell line: Huh7 ; value: <5 µM
O=c1c(-c2noc(Cc3ccccc3)n2)cn(Cc2ccc(C(F)(F)F)cc2)c2cc(N(CCO)CCO)c(F)cc12 ; strain: 1b ; value: <2 µM
COc1ccc(N=C2SC(c3ccc(NC(=O)[C@H]4CCCN4C(=O)OCc4ccccc4)cc3)C(=O)N2Cc2ccco2)cn1 ; cell line: Huh7 ; value: 0.1–1 µM
C=CC1CC1(NC(=O)[C@@H]1C[C@@H](OC(=O)Nc2ccccn2)CN1C(=O)[C@@H](NC(=O)OC(C)(C)C)C(C)(C)C)C(=O)NS(=O)(=O)C1CC1 ; cell line: Huh7 ; strain: 1b ; value: >10 µM
Cc1ccc(-n2ncc3c(Nc4ccc(N5CCOCC5)c(C#N)c4)ncnc32)c(C)c1 ; cell line: HUH 9B ; value: <1 µM
CCCCOc1ccc(S(=O)(=O)Oc2ccccc2/C=N/NC(=O)Cc2cccc(OC)c2)cc1 ; cell line: Huh7 ; value: <5 µM
C[C@@H](NC(=O)OCc1ccccc1)C(=O)Nc1ccc(C2SC(=Nc3cc(F)cc(F)c3)N(Cc3ccco3)C2=O)cc1 ; cell line: Huh7 ; value: 0.1–1 µM
C/[N+](=C\c1ccccc1OS(=O)(=O)c1ccc(C(F)(F)F)cc1)NC(=O)Cc1ccccc1 ; cell line: Huh7 ; value: >50 µM
CN1CCN(c2cc3c(cc2F)c(=O)c(-c2noc(C(CC(N)=O)c4ccccc4)n2)cn3Cc2ccc(Cl)cc2)CC1 ; strain: 1b ; value: >10 µM
O=C(Cn1c(Br)nc(Cl)c1Cl)N/N=C/c1ccccc1OS(=O)(=O)c1ccc(C(F)(F)F)cc1 ; cell line: Huh7 ; value: >50 µM
C=CC1CC1(NC(=O)[C@@H]1C[C@@H](OC(=O)N2CCCC2)CN1C(=O)[C@@H](NC(=O)OC(C)(C)C)C(C)(C)C)C(=O)NS(=O)(=O)C1CC1 ; cell line: Huh7 ; strain: 1b ; value: >10 µM
O=c1c(-c2nc(Cc3ccc(F)cc3)no2)cn(Cc2ccc(C(F)(F)F)cc2)c2cc(N3CCOCC3)c(F)cc12 ; strain: 1b ; value: >10 µM
C=CC1CC1(NC(=O)[C@@H]1C[C@@H](OC(=O)Nc2cc(C)ccc2-n2nccn2)CN1C(=O)[C@@H](NC(=O)OC(C)(C)C)C(C)(C)C)C(=O)NS(=O)(=O)C1CC1 ; cell line: Huh7 ; strain: 1b ; value: <0.1 µM
CNC(=O)c1c(-c2ccc(F)cc2)oc2ccc(OC(C)C)c(N(Cc3ccccc3)S(C)(=O)=O)c12 ; cell line: Huh7 ; value: <1 µM
CCCCc1ccc(Nc2ncnc3c2cnn3-c2ccccc2Br)cc1 ; cell line: HUH 9B ; value: 1–10 µM
Cc1ccccc1CC(=O)N/N=C/c1ccccc1OS(=O)(=O)c1ccc(C(F)(F)F)cc1 ; cell line: Huh7 ; value: <5 µM
CNC(=O)c1c(-c2ccc(F)cc2)oc2cc(N3CCCC3)c(OC(C)C)cc12 ; cell line: Huh7 ; value: <1 µM
CN(C)c1cc2c(cc1F)c(=O)c(-c1noc(C(C)(C)c3ccccc3)n1)cn2Cc1ccc(C(F)(F)F)cc1 ; strain: 1b ; value: <2 µM
C[C@@H](NC(=O)OCc1ccccc1)C(=O)Nc1ccc(C2SC(=Nc3ccc(F)c(Cl)c3)N(Cc3ccco3)C2=O)cc1 ; cell line: Huh7 ; value: 1–5 µM
CCOc1ccc(Nc2ncnc3c2cnn3-c2ccc(Cl)cc2Cl)cc1 ; cell line: HUH 9B ; value: 1–10 µM
C[C@@H](NC(=O)OCc1ccccc1)C(=O)Nc1ccc(C2SC(=Nc3cccc(OC(F)(F)F)c3)N(Cc3ccco3)C2=O)cc1 ; cell line: Huh7 ; value: 0.1–1 µM
CCc1cc2c(C(=O)NC)c(-c3ccc(F)cc3)oc2cc1N(CCOC)S(C)(=O)=O ; cell line: Huh7 ; value: <1 µM
O=c1c(-c2noc(Cc3ccccc3)n2)cn(CC2CCCCC2)c2ccc(O)cc12 ; strain: 1b ; value: <2 µM
CC(C)c1ccc(S(=O)(=O)Oc2ccccc2/C=N/NC(=O)Cc2ccccc2)cc1 ; cell line: Huh7 ; value: <5 µM

The last 6 rows once more:

smiles	cell line	strain	value
C[C@@H](NC(=O)OCc1ccccc1)C(=O)Nc1ccc(C2SC(=Nc3ccc(F)c(Cl)c3)N(Cc3ccco3)C2=O)cc1	Huh7	-	1–5 µM
CCOc1ccc(Nc2ncnc3c2cnn3-c2ccc(Cl)cc2Cl)cc1	HUH 9B	-	1–10 µM
C[C@@H](NC(=O)OCc1ccccc1)C(=O)Nc1ccc(C2SC(=Nc3cccc(OC(F)(F)F)c3)N(Cc3ccco3)C2=O)cc1	Huh7	-	0.1–1 µM
CCc1cc2c(C(=O)NC)c(-c3ccc(F)cc3)oc2cc1N(CCOC)S(C)(=O)=O	Huh7	-	<1 µM
O=c1c(-c2noc(Cc3ccccc3)n2)cn(CC2CCCCC2)c2ccc(O)cc12	-	1b	<2 µM
CC(C)c1ccc(S(=O)(=O)Oc2ccccc2/C=N/NC(=O)Cc2ccccc2)cc1	Huh7	-	<5 µM